Literature values as cited in US9078897B1, “Concentrated, inhalable antibiotic formulation” (ARADIGM CORPORATION, priority 2006, dated 2015).

Test system: P. aeruginosa
Details: cited from earlier work

Structure (SMILES): NC[C@H]1O[C@H](O[C@H]2[C@H](O)[C@@H](O[C@H]3O[C@H](CO)[C@@H](O)[C@H](N)[C@H]3O)[C@H](N)C[C@@H]2N)[C@H](N)C[C@@H]1O [tobramycin]
- patients with resistant isolates (continuous therapy, after 3 months (from ~10%)): 80%
- patients with multiresistant P. aeruginosa (intermittent inhaled therapy, after 18 months (14% at baseline)): 23%
